Mutational scan of HIV-1 Vif (LAI) in cells with APOBEC3G

Source: Langley et al. 2025, preprint (doi:10.1101/2025.10.20.683452), supplementary data.

Scanned stretch, residues 12 to 115 of Vif from HIV-1 LAI (a laboratory-adapted subtype B strain):
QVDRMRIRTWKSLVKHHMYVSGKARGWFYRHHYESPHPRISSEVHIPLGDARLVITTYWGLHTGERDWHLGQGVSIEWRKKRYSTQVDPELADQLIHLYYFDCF

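A pool of vif mutants was passaged twice, 72 h each, on SupT1 cells that express APOBEC3G. Each of three replicates was sequenced after round two and set against the merged round-one pool. Changes do not touch integrase, since the pol overlap was removed.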

Scale: log2 enrichment, wild type = 0; negative values mean that the variant was depleted. Substitutions are written as wild-type residue, site number, new residue. All changes here are to asparagine. The median of three replicates is given. Input reads are the counts in the merged round-one pool, before selection. Some changes are missing from the data or left out.

change	input reads	median log2 enrichment
Q12N	1367	0.13
V13N	512	-1.61
D14N	785	-2.31
M16N	32	0.01
R17N	38	1.32
I18N	486	-2.07
R19N	867	-2.58
T20N	30	0.54
W21N	117	0.64
K22N	1958	-1.78
L24N	129	0.91
V25N	391	-3.64
K26N	140	-0.67
H27N	350	0.27
M29N	331	-1.95
V31N	629	-0.73
S32N	61	-3.28
G33N	449	-1.98
K34N	558	-0.93
A35N	1080	-1.01
R36N	69	-2.03
Y40N	197	-0.45
R41N	434	-2.17
H42N	199	1.26
H43N	670	-1.79
S46N	879	-2.66
R50N	488	-1.90
I51N	24	1.81
S52N	16	-1.87
S53N	359	-2.11
E54N	374	-2.45
H56N	544	-1.56
I57N	921	-2.71
P58N	379	-3.12
L59N	830	-3.13
G60N	113	-4.18
A62N	1525	0.52
V65N	497	-3.04
I66N	1231	-0.64
T67N	430	-0.68
Y69N	823	-1.68
W70N	586	-1.26
G71N	833	-4.08
H73N	436	-4.06
T74N	88	1.97
G75N	31	0.46
R77N	25	1.79
D78N	93	0.84
W79N	469	-3.07
H80N	28	2.95
L81N	506	-2.25
G82N	994	-2.67
Q83N	247	-2.13
G84N	741	-2.48
V85N	429	-3.78
I87N	449	-1.43
E88N	952	-0.77
W89N	303	1.85
R90N	423	-2.20
K91N	932	-0.80

3 of these entries, quoted again:

| change | input reads | median log2 enrichment |
|---|---|---|
| L24N | 129 | 0.91 |
| I57N | 921 | -2.71 |
| I87N | 449 | -1.43 |

The scan is noisy: the rank correlation of replicates is about 0.4 to 0.65, and variants with under about 50 input reads tend to read too high. Positive scores are uncertain; some enriched variants did not exclude APOBEC3G in a separate test.